Legend:
[1] = target: T1, SARS-CoV-2 S1-S2 spike ectodomain with 6xHis tag, produced in High Five cells (SARS-CoV-2 Wuhan-Hu-1 (MN908947 / …, UniProt P0DTC2, […] | “GSAS” substitution at the furin site, residues 682–685); assay: ELISA; conditions: both partners purified
T1 construct: also called S1-S2-His; S1-S2 trimer; not shown: 6xHis, C-terminal, kept

[2] = target: T1, SARS-CoV-2 S1-S2 spike ectodomain with …; assay: flow cytometry on cells; conditions: both partners purified

B1: STE72-2G4 scFv-Fc (scFv, V domains shown)
VH: QVQLVQSGAEVKKPGASVKVSCKASGYTFTSYGISWVRQAPGQGLEWMGWISAYNGNTNYAQKLQGRVTMTTDTSTSTAYMELRSLRSDDTAVYYCARFFYDSSGYSTDYWGQGTLVTVSS
VL: ETTLTQSPAFMSVTPGDRAILSCRASQSVDSHLAWYHQKPGQPPRLLIYGASTRATGIPARFSGSRSGTEFTLTISGLQSEDLGVYYCQQYASWPPGYNFGQGTKLEIK
notes: also called scFv-hFc; source: Expi293F, transient transfection, purified (Protein A)
B1 was tested, and the EC50 [1] was 0.3 nM and the IC50 [2] was 37 nM.

B2: STE73-2B2 scFv-Fc (scFv, V domains shown)
VH: QVQLVQSGAEVKKPGASVKVSCKASGYTFTGYYMHWVRQAPGQGLEWMGWINPNSGGTNYAQKFQGRVTITRDTSASTAYMELSSLRSEDTAVYYCARVSGWYFGAFDIWGQGTMVTVSS
VL: LPVLTQPHSLSESPGKTVNISCTGSSGSIASNYVQWYQQRPGSAPTTVIYEDSHRPSGVPDRFSGSIDSSSNSASLSISGLKTEDEADYYCQSYDSSNNQWVFGGGTKLTVL
notes: as for B1
Binder B2 has an EC50 [1] of 0.3 nM and an IC50 [2] of 63 nM.

B3: STE73-2C2 scFv-Fc (scFv, V domains shown)
VH: QVQLVESGGGLVQPGGSLRLSCAASGITVSSNYMSWVRQAPGKGLEWVSVIYSGGSTFYADSVKGRFTISRDNSKNTLYLQMNSLRAEDTGVYYCARGHDNLDYWGQGTLVTVSS
VL: LPVLTQPHSVSESPGKTVIISCTGSSDSIASNYVQWYQQRPGSAPTTVIYEDNKRPSGVPDRFSGSTDSSSNSASLTISGLKTEDEAEYYCQSYDSNNHWVFGGGTKLTVL
notes: as for B1
Binder B3 has an EC50 [1] of 7.8 nM and an IC50 [2] of 59 nM.

B4: STE73-2G8 scFv-Fc (scFv, V domains shown)
VH: QVQLVQSGGGLVKPGGSLRLSCAASGITVSSNYMSWVRQAPGKGLEWVSILYSGGTTFYTDSVKGRFTISRDNSKNTLHLQMNSLRAEDTAVYYCARWSGTYYDYWGQGTLVTVSS
VL: SSELTQDPAVSVALGQTVRITCQGDSLRSYYASWYQQKPGQAPVLVIYGKNNRPSGIPDRFSGSSSGNTASLTITGAQAEDEADYYCNSRDSTNDPVLFGAGTKLTVL
notes: as for B1
B4 was tested, and the EC50 [1] was 0.4 nM and the IC50 [2] was 23 nM.

B5: STE73-2G8 IgG (antibody, V domains shown)
VH: QVQLVQSGGGLVKPGGSLRLSCAASGITVSSNYMSWVRQAPGKGLEWVSILYSGGTTFYTDSVKGRFTISRDNSKNTLHLQMNSLRAEDTAVYYCARWSGTYYDYWGQGTLVTVSS
VL: SSELTQDPAVSVALGQTVRITCQGDSLRSYYASWYQQKPGQAPVLVIYGKNNRPSGIPDRFSGSSSGNTASLTITGAQAEDEADYYCNSRDSTNDPVLFGAGTKLTVL
notes: source: Expi293F, transfected, purified (Protein A); copies: 2 + 2
B5 showed an EC50 [1] of 2.8 nM.

B6: STE73-6C1 scFv-Fc (scFv, V domains shown)
VH: QVQLVQSGGGVVQPGRSLRLSCAASGFTFSSYAMHWVRQAPGKGLEWVAVISYDGSNKYYADSVKGRFTISRDNSKNTLYLQMNSLRAEDTAVYYCARSYVGGMDVWGQGTTVTVSS
VL: QLVLTQSPSVSGAPGQSVTISCTGTDSNIGAGYNVHWYQQLPGAAPKLIISYTDNRPSGVPDRFSGSKSGTSASLAITGLQAEDEADYYCQSSDRTLVGSLFGTGTKVTVL
notes: as for B1
B6 showed an EC50 [1] of 1.8 nM and an IC50 [2] of 97 nM.

B7: STE73-6C1 IgG (antibody, V domains shown)
VH: QVQLVQSGGGVVQPGRSLRLSCAASGFTFSSYAMHWVRQAPGKGLEWVAVISYDGSNKYYADSVKGRFTISRDNSKNTLYLQMNSLRAEDTAVYYCARSYVGGMDVWGQGTTVTVSS
VL: QLVLTQSPSVSGAPGQSVTISCTGTDSNIGAGYNVHWYQQLPGAAPKLIISYTDNRPSGVPDRFSGSKSGTSASLAITGLQAEDEADYYCQSSDRTLVGSLFGTGTKVTVL
notes: as for B5
B7 was tested, and the EC50 [1] was 34 nM.

B8: STE73-9G3 scFv-Fc (scFv, V domains shown)
VH: QVQLQESGGGLVQPGGSLRLSCAASGFTFSSYAMSWVRQAPGKGLEWVSAISGSGGSTYYADSVKGRFTISRDNSKNTLYLQMNSLRAEDTAVYYCARDLVLGSGSSNDWGRGTLVTVSS
VL: QPVLTQPPSVSGAPGQSVTISCTGTDSNIGAGYNVHWYQQLPGAAPKLIISYTDNRPSGVPDRFSGSKSGTSASLAITGLQAEDEADYYCQSSDRTLVGSLFGTGTKVTVL
notes: as for B1
B8 showed an EC50 [1] of 0.9 nM and an IC50 [2] of 40 nM.

B9: STE73-9G3 IgG (antibody, V domains shown)
VH: QVQLQESGGGLVQPGGSLRLSCAASGFTFSSYAMSWVRQAPGKGLEWVSAISGSGGSTYYADSVKGRFTISRDNSKNTLYLQMNSLRAEDTAVYYCARDLVLGSGSSNDWGRGTLVTVSS
VL: QPVLTQPPSVSGAPGQSVTISCTGTDSNIGAGYNVHWYQQLPGAAPKLIISYTDNRPSGVPDRFSGSKSGTSASLAITGLQAEDEADYYCQSSDRTLVGSLFGTGTKVTVL
notes: as for B5
With B9 the EC50 [1] was 2.3 nM.

B10: STE70-1E12 scFv-Fc (scFv, V domains shown)
VH: QMQLVQSGAEVKKPGASVKVSCKASGYTFTGYYMHWVRQAPGQGLEWMGRINPNSGGTNYAQKFQGRVTMTRDTSTSTAYMELSRLRSDDTAVYYCVRDGYNFNNWFDPWGQGTLVTVSS
VL: NFMLTQPHSVSGSPGETITISCTGSGGSIASNYVQWYRQRPGSAPTIVIYEDTQRPSGVPDRFSGSIDSSSNSASLTISGLKTEDEADYYCQSSESTNHVMFGGGSKLTVL
notes: as for B1
Work on B10 yielded an EC50 [1] of 1.1 nM and an IC50 [2] of 180 nM.

B11: STE70-1E12 IgG (antibody, V domains shown)
VH: QMQLVQSGAEVKKPGASVKVSCKASGYTFTGYYMHWVRQAPGQGLEWMGRINPNSGGTNYAQKFQGRVTMTRDTSTSTAYMELSRLRSDDTAVYYCVRDGYNFNNWFDPWGQGTLVTVSS
VL: NFMLTQPHSVSGSPGETITISCTGSGGSIASNYVQWYRQRPGSAPTIVIYEDTQRPSGVPDRFSGSIDSSSNSASLTISGLKTEDEADYYCQSSESTNHVMFGGGSKLTVL
notes: as for B5
B11 gave an EC50 [1] of 0.8 nM.

B12: STE72-1B6 scFv-Fc (scFv, V domains shown)
VH: QVKLVQSGGGLVQPGGSLRLSCAASGFTFSSYAMSWVRQAPGKGLEWVSGISGSGGSTYYADSVKGRFTISRDNSKNTLYLQVNSLRAEDTAVYYCAKAPYGDFRGLWYFDYWGQGTLVTVSS
VL: DIVMTQSPFSVSASVGDRVTISCRASQDIRSWLAWYQQKPGKAPQLLIYDASSLQSGVPSRFSGSGSGTDFTLTISSLQPEDFATYYCQQADSVPLTFGGGTKVEIQ
notes: as for B1
B12 was tested, and the EC50 [1] was 1.4 nM and the IC50 [2] was 240 nM.

B13: STE72-1B6 IgG (antibody, V domains shown)
VH: QVKLVQSGGGLVQPGGSLRLSCAASGFTFSSYAMSWVRQAPGKGLEWVSGISGSGGSTYYADSVKGRFTISRDNSKNTLYLQVNSLRAEDTAVYYCAKAPYGDFRGLWYFDYWGQGTLVTVSS
VL: DIVMTQSPFSVSASVGDRVTISCRASQDIRSWLAWYQQKPGKAPQLLIYDASSLQSGVPSRFSGSGSGTDFTLTISSLQPEDFATYYCQQADSVPLTFGGGTKVEIQ
notes: as for B5
Binder B13 has an EC50 [1] of 2.4 nM.

B14: STE72-4E12 scFv-Fc (scFv, V domains shown)
VH: QVQLVQSGAEVKKPGASVKVSCKASGYTFTSYYMHWVRQAPGQGLEWMGIINPSGGSTSYAQKFQGRVTMTRDTSTSTVYMELSSLRSEDTAVYYCARDLSGGLDYWGQGTLVTVSS
VL: ETTLTQSPATLSVSPGERVTLACRAGQTISSKLAWYRQKPGQAPSLLIYDASTRATGVPARFSGSGSGTEFTLTISSLQSEDFAVYYCQQYSDWPPTFGQGTKVEIK
notes: as for B1
B14 was tested, and the EC50 [1] was 3.7 nM.

B15: STE72-4E12 IgG (antibody, V domains shown)
VH: QVQLVQSGAEVKKPGASVKVSCKASGYTFTSYYMHWVRQAPGQGLEWMGIINPSGGSTSYAQKFQGRVTMTRDTSTSTVYMELSSLRSEDTAVYYCARDLSGGLDYWGQGTLVTVSS
VL: ETTLTQSPATLSVSPGERVTLACRAGQTISSKLAWYRQKPGQAPSLLIYDASTRATGVPARFSGSGSGTEFTLTISSLQSEDFAVYYCQQYSDWPPTFGQGTKVEIK
notes: as for B5
B15 was tested, and the EC50 [1] was 1.7 nM.

Reference: article PMC7952403 (Nature Communications, 2021)
